A mixed list of measured activities; the numbers were collected in NIAID ChemDB.

All rows: growth or infection tests; organism: Mycobacterium tuberculosis

MIC bound: limit read from a one-dose screen. Rows are shuffled and stem from different studies. Blank or dashed fields: not listed here. MIC50, MIC90 and the like: level of inhibition, or share of isolates inhibited. Inhibition is in % at the dose shown (toxicity tests: loss of growth or viability).

compound,strain,method,conditions,measure,tested at,value
NNC(=O)c1ccncc1,Isolate 16,,,MIC,,1 µg/mL
CCCCCCCCc1ccc2c(c1)C(=O)c1nc3ccncc3c(=O)n1-2,10038 RFLP:W,,,MIC,,≤0.015 µg/mL
CO[C@H]1/C=C/O[C@@]2(C)Oc3c(C)c(O)c4c(O)c(cc(OCC(=O)NC(C)C)c4c3C2=O)NC(=O)/C(C)=C\C=C\[C@H](C)[C@H](O)[C@@H](C)[C@@H](O)[C@@H](C)[C@H](OC(C)=O)[C@@H]1C,H37Rv,,,MIC,,0.075 µg/mL
CC(C)N1C(=O)CS/C1=N\NC(=O)COc1cnccn1,H37Rv,,,MIC,,196 µg/mL
COC(=O)C1C(OC(C)=O)C(C)C(O)C(C)(O)/C=C(\C)C2=C3C(=C(C)C(=O)c4c(O)c(c(C)c(OC(C)=O)c43)NC(=O)/C(C)=C/C=C\[C@](C)(O)C(O)[C@@H](C)C1O)OCO2,PAS-R,,,MIC,,1.6 µg/mL
CCCCCCCCCCCCCCCCNc1ccc(CNCCNC2CCCCCCC2)cc1,,,,MIC,,50 µM
O=C1c2c(Cl)cccc2-n2c1nc1ccccc1c2=O,H37Rv,,,MIC,,0.5 µg/mL
CCN(CC)C(=S)S[Se](SC(=S)N(CC)CC)(SC(=S)N(CC)CC)SC(=S)N(CC)CC,TAC-R,,,MIC,,0.8 µg/mL
C[C@H]1COc2c(N3CCN(C)CC3)c(F)cc3c(=O)c(C(=O)O)cn1c23,2R,,,MIC,,0.5 µg/mL
CCCCC(CC)CN1CN(CC(CC)CCCC)CC(C)(NCCNCc2ccco2)C1,,,,MIC,,12.5 µM
CCCCC1NC(=O)OC1=O,H37Rv,BACTEC,,inhibition,12.5 µg/mL,7%
CCOC(=O)C1C2C=CC3CC(=O)N(C(C)c4ccccc4)C31O2,18b,resazurin,,MIC,,>16 µg/mL
CCOC(=O)C(CC(C)C)NC(=O)c1c2nc3c(C(=O)NC(CC(C)C)C(=O)OCC)cc(Br)c(C)c3oc-2c(C)c(=O)c1N,H37Rv,BACTEC,,inhibition,12.5 µg/mL,0%
C=C1CCC[C@]2(C)C[C@H]3OC(=O)C(C)[C@H]3C[C@@H]12,H37Rv,,,MIC,,>128 µg/mL
Fc1ccc(-c2c(C(c3ccccc3)n3ccnc3)cnn2-c2ccccc2)cc1,ATCC 35837 (ethambutol-resistant),,,MIC50,,≥100 µM
CC(C)=CCC/C(C)=C/CNCCNCCc1ccccc1Cl,,,,MIC,,50 µM
CO[C@H]1/C=C/O[C@@]2(C)Oc3c(C)c(O)c4c(O)c(c(/C=N/N5CCN(C)CC5)c(O)c4c3C2=O)NC(=O)/C(C)=C\C=C\[C@H](C)[C@H](O)[C@@H](C)[C@@H](O)[C@@H](C)[C@H](OC(C)=O)[C@@H]1C,ATCC 35822 (isoniazid-resistant),,,MIC50,,0.6 µM
O=C(COc1cnccn1)N/N=c1\scc(-c2ccc(Cl)cc2Cl)n1-c1ccc(Cl)cc1[N+](=O)[O-],H37Rv,,,MIC,,5 µg/mL
O=C(NO)c1cccc(C(=O)NO)n1,H37Rv,resazurin,,inhibition,6.25 µg/mL,-3%
O=C(COc1cnccn1)N/N=c1\scc(-c2ccc(Cl)cc2)n1-c1ccc(Cl)cc1Cl,H37Rv,,,MIC,,16 µg/mL
Cc1ccc(C(=O)/C=C/c2ccccc2)c(F)c1,H37Rv,resazurin,14 d,MIC,,32 µg/mL
Cc1n[nH]c(=O)n1-c1cccnc1,H37Rv,resazurin,,inhibition,6.25 µg/mL,-24%
O=C1c2c(Cl)cccc2-n2c1nc1ncccc1c2=O,H37Rv,,,MIC,,0.5 µg/mL
CCCCCCCC/C=C/CCCCCCCC(=O)N(C)N(C)C(=O)CCCCCCC/C=C/CCCCCCCC,H37Rv,BACTEC,,inhibition,12.5 µg/mL,4%
Cc1ccc(C(=O)/C=C/c2ccccc2)cc1,H37Rv,MTT,,MIC,,32 µg/mL
CCCCc1ccc2c(c1)C(=O)c1nc3ccncc3c(=O)n1-2,H37Rv,,,MIC,,0.015 µg/mL
C=C1CC[C@@H](O)[C@]2(C)CC[C@@H](C(=C)CO)[C@H](O)[C@@H]12,H37Rv,,,MIC,,>128 µg/mL
CN[C@@H]1[C@H](O[C@H]2[C@H](O[C@H]3[C@H](O)[C@@H](O)[C@H](N=C(N)N)[C@@H](O)[C@@H]3N=C(N)N)O[C@@H](C)[C@]2(O)C=O)O[C@@H](CO)[C@H](O)[C@H]1O,ATCC 35822 (isoniazid-resistant),,,MIC90,,0.3 µM
O=C(COc1cnccn1)N/N=c1\scc(-c2ccc(Br)cc2)n1-c1ccc(Cl)cc1,H37Rv,,,MIC,,10.7 µg/mL
Nc1ccc(C(=O)N/C(=C/c2cccc([N+](=O)[O-])c2)c2nc3ccc(Cl)cc3[nH]2)cc1,H37Rv,resazurin,,MIC bound,,>6.25 µg/mL
O=C1CCCN1CCCNCCNCCCc1ccccc1,,,,MIC,,50 µM
Fc1ccccc1-n1ncc(C(c2ccccc2)n2ccnc2)c1-c1ccccc1,ATCC 27294,,,MIC50,,47 µM
CCNc1oc(-c2ccc(S(=O)(=O)N3CCC(C)CC3)cc2)nc1C#N,18b,resazurin,,MIC,,16 µg/mL
CC(=O)OCCCCCCc1ccc2nc3n(c(=O)c2c1)-c1ccc(Cl)cc1C3=O,H37Rv,,,MIC,,0.5 µg/mL
COc1ccc(C(=O)/C=C/c2ccc(F)cc2)c(F)c1,H37Rv,resazurin,14 d,MIC,,32 µg/mL
O=C(N/N=C/c1ccc(N2CCOCC2)o1)c1ccncc1,Clinical isolate,resazurin,,MIC,,16 µg/mL
Nc1ncc2c(n1)Oc1cc3nc4c(=O)nc(N)nc-4oc3cc1N2,H37Rv,BACTEC,,inhibition,12.5 µg/mL,-5%
CCCN1CNC(=S)N(c2ccc(C(=O)OCC)cc2)C1,Clinical isolate,resazurin,,MIC,,0.5 µg/mL
O=C(/C=C/c1ccccc1)c1ccc(O)cc1,H37Rv,MTT,14 d,MIC,,32 µg/mL
Clc1ccc(-n2ncc(C(c3ccccc3)n3ccnc3)c2-c2ccccc2)cc1,ATCC 35828 (pyrazinamide-resistant),,,MIC90,,≥100 µM
CC(C)n1c(-c2ccc(Cl)cc2)cs/c1=N\NC(=O)COc1cnccn1,H37Rv,,,MIC,,16 µg/mL
COc1ccc(-c2c(N)[n+]([O-])c3ccccc3[n+]2[O-])cc1OC,H37Rv,BACTEC,,inhibition,12.5 µg/mL,8%
C[C@H]1COc2c(N3CCN(C)CC3)c(F)cc3c(=O)c(C(=O)O)cn1c23,Isolate 11,,,MIC,,1 µg/mL
Cc1ccc(NC(=O)C(c2ccccc2)c2ccccc2)cc1Cl,H37Rv,BACTEC,,MIC bound,,>12.5 µg/mL
O=C(/C=C/c1c(F)cccc1Cl)c1ccc(F)cc1,H37Rv,MTT,,MIC,,64 µg/mL
NNC(=O)c1ccncc1,ATCC 27294,,,MIC50,,0.2 µM
COc1ccc(C(=O)/C=C/c2ccccc2Cl)cc1,H37Rv,resazurin,14 d,MIC,,32 µg/mL
O=C1c2cc(I)ccc2-n2c1nc1ncccc1c2=O,TN2050RFLF:CO (MDR),,,MIC,,0.06 µg/mL
Cn1c2ccccc2c2nnc(N/N=C/c3ccncc3)nc21,H37Rv,resazurin,,MIC bound,,>6.25 µg/mL
CC(C)C(=O)C1C/C(=C/c2ccccn2)C(=O)/C(=C/c2cccnc2)C1,Clinical isolate,resazurin,,MIC,,4 µg/mL
C=C[C@](C)(O)CC[C@@H]1[C@@]2(C)CCCC(C)(C)[C@@H]2CC[C@@]1(C)O,H37Rv,,,MIC,,6 µg/mL
CC(=O)[C@]1(O)CC[C@@]2(O)[C@]1(C)[C@H](OC(=O)c1ccc(O)cc1)C[C@@H]1[C@@]3(C)CC[C@H](O)CC3=CC[C@]12O,H37Rv,BACTEC,,MIC,,≥12.5 µg/mL
Clc1ccccc1-c1c(C(c2ccccc2)n2ccnc2)cnn1-c1ccccc1,ATCC 35822 (isoniazid-resistant),,,MIC90,,87.4 µM
COc1ccccc1CCNCCNC1C2CC3CC(C2)CC1C3,,,,MIC,,25 µM
CO[C@H]1/C=C/O[C@@]2(C)Oc3c(C)c(O)c4c(O)c(cc(OCC(=O)N(C)N(C)C)c4c3C2=O)NC(=O)/C(C)=C\C=C\[C@H](C)[C@H](O)[C@@H](C)[C@@H](O)[C@@H](C)[C@H](OC(C)=O)[C@@H]1C,H37Rv,,,MIC,,0.18 µg/mL
O=C(O)c1cc2ccc3c(c2oc1=O)CN(c1ccc(Cl)cc1)CO3,18b,resazurin,,MIC,,4 µg/mL
CO[C@H]1/C=C/O[C@@]2(C)Oc3c(C)c(O)c4c(O)c(c5c(c4c3C2=O)NC2(CCN(CC(C)C)CC2)N=5)=NC(=O)/C(C)=C\C=C\[C@H](C)[C@H](O)[C@@H](C)[C@@H](O)[C@@H](C)[C@H](OC(C)=O)[C@@H]1C,Strain 100 (S531L),,,MIC,,0.125 µg/mL
CC(NCCNC[C@@H]1CC[C@H]2C[C@@H]1C2(C)C)C12CC3CC(CC(C3)C1)C2,,,,MIC,,50 µM
CCCN(CCC)N(C)C(=O)COc1cc2c(O)c3c(O)c(C)c4c(c13)C(=O)[C@@](C)(O/C=C/[C@H](OC)[C@@H](C)[C@@H](OC(C)=O)[C@H](C)[C@H](O)[C@H](C)[C@@H](O)[C@@H](C)/C=C/C=C(/C)C(=O)N2)O4,H37Rv,,,MIC,,0.37 µg/mL
NC(=S)N/N=C/c1ccc2oc3ccccc3c2c1,PZA-R,,,MIC,,≤0.05 µg/mL
NC1=NC(c2cc(F)cc(F)c2)n2c(nc3ccccc32)N1,Clinical isolate,resazurin,,MIC,,16 µg/mL
Clc1ccc(-c2c(C(c3ccccc3)n3ccnc3)cnn2-c2ccccc2)cc1,ATCC 35820 (streptomycin-resistant),,,MIC50,,≥100 µM
COc1ccc(C(=O)/C=C/c2ccc(F)cc2)cc1F,H37Rv,resazurin,21 d,MIC,,128 µg/mL
CC(C)CCC[C@@H](C)[C@H]1CC[C@H]2[C@@H]3CC[C@H]4C[C@@H](CCC=C(c5cc(Cl)c(O)c(C(=O)O)c5)c5cc(Cl)c(O)c(C(=O)O)c5)CC[C@]4(C)[C@H]3CC[C@]12C,H37Rv,BACTEC,,inhibition,12.5 µg/mL,7%
CO[C@H]1/C=C/O[C@@]2(C)Oc3c(C)c(O)c4c(O)c(c(/C=N/N5CCN(C)CC5)c(O)c4c3C2=O)NC(=O)/C(C)=C\C=C\[C@H](C)[C@H](O)[C@@H](C)[C@@H](O)[C@@H](C)[C@H](OC(C)=O)[C@@H]1C,7S,,,MIC,,1 µg/mL
Cc1ccc(NNC(=O)C(=O)OC2C(=O)OCC2O)cc1,H37Rv,BACTEC,,MIC,,≥12.5 µg/mL
CCCCCCC(C)c1ccc2c(c1)C(=O)c1nc3ccncc3c(=O)n1-2,H37Rv,,,MIC,,0.015 µg/mL
CN1N=C(N)c2cn([C@@H]3O[C@H](COP(=O)(O)O)[C@@H](O)[C@H]3O)c3ncnc1c23,H37Rv,BACTEC,,MIC bound,,>12.5 µg/mL
O=C(/C=C/c1ccccc1Cl)c1ccccc1,H37Rv,resazurin,7 d,MIC,,32 µg/mL
NC[C@H]1O[C@H](O[C@H]2[C@H](O)[C@@H](O[C@H]3O[C@H](CO)[C@@H](O)[C@H](N)[C@H]3O)[C@H](N)C[C@@H]2N)[C@H](O)[C@@H](O)[C@@H]1O,Isolate 12,,,MIC,,2 µg/mL
O=C(O)c1[nH]c2ccccc2c1CNCCc1ccc(Cl)cc1,Clinical isolate,resazurin,,MIC,,16 µg/mL
CCCN(CCC)N(CCC)C(=O)COc1cc2c(O)c3c(O)c(C)c4c(c13)C(=O)[C@@](C)(O/C=C/[C@H](OC)[C@@H](C)[C@@H](OC(C)=O)[C@H](C)[C@H](O)[C@H](C)[C@@H](O)[C@@H](C)/C=C/C=C(/C)C(=O)N2)O4,H37Rv,,,MIC,,0.09 µg/mL
Clc1ccc(-n2ncc(C(c3ccccc3)n3ccnc3)c2-c2ccccc2Cl)c(Cl)c1,ATCC 35828 (pyrazinamide-resistant),,,MIC90,,60.2 µM
CCC(CC)=C1OC(=O)C(=O)N1CC,H37Rv,BACTEC,,inhibition,12.5 µg/mL,14%
CC(=O)O[C@H]1CC[C@]2(C)[C@H]3CC[C@]4(C)[C@@H]([C@H](C)/C=C/[C@H](C)C(C)C)CC[C@H]4[C@@]34C=C[C@]2(C1)OO4,H37Rv,,,MIC,,8 µg/mL
CN(C)c1cc(O)c(-n2c3cc(=O)c(N(C)C)cc-3nc3ccccc32)cc1O,H37Rv,BACTEC,,inhibition,12.5 µg/mL,31%
C=C1CC[C@@H](O)[C@]2(C)CC[C@@H]3[C@H](OC(=O)[C@H]3C)[C@@H]12,H37Rv,,,MIC,,>128 µg/mL

The last 6 rows once more:

CCCN(CCC)N(CCC)C(=O)COc1cc2c(O)c3c(O)c(C)c4c(c13)C(=O)[C@@](C)(O/C=C/[C@H](OC)[C@@H](C)[C@@H](OC(C)=O)[C@H](C)[C@H](O)[C@H](C)[C@@H](O)[C@@H](C)/C=C/C=C(/C)C(=O)N2)O4 ; strain: H37Rv ; measure: MIC ; value: 0.09 µg/mL
Clc1ccc(-n2ncc(C(c3ccccc3)n3ccnc3)c2-c2ccccc2Cl)c(Cl)c1 ; strain: ATCC 35828 (pyrazinamide-resistant) ; measure: MIC90 ; value: 60.2 µM
CCC(CC)=C1OC(=O)C(=O)N1CC ; strain: H37Rv ; method: BACTEC ; measure: inhibition ; tested at: 12.5 µg/mL ; value: 14%
CC(=O)O[C@H]1CC[C@]2(C)[C@H]3CC[C@]4(C)[C@@H]([C@H](C)/C=C/[C@H](C)C(C)C)CC[C@H]4[C@@]34C=C[C@]2(C1)OO4 ; strain: H37Rv ; measure: MIC ; value: 8 µg/mL
CN(C)c1cc(O)c(-n2c3cc(=O)c(N(C)C)cc-3nc3ccccc32)cc1O ; strain: H37Rv ; method: BACTEC ; measure: inhibition ; tested at: 12.5 µg/mL ; value: 31%
C=C1CC[C@@H](O)[C@]2(C)CC[C@@H]3[C@H](OC(=O)[C@H]3C)[C@@H]12 ; strain: H37Rv ; measure: MIC ; value: >128 µg/mL